Biological target: biotinylated SARS-CoV-2-S1 (SINO BIOLOGICAL #40591-V08H-B) (SARS-CoV-2)
Assay: SPR

## hACE2-his tag (#10108-H08B) (from UniProt Q9BYF1 18-740) (domain or fragment)
  Kd: 26 nM

— paper PMC8828381
